Measured data: PubChem BioAssay AID504761 (Drosophila RNAi Screening Center, 2011)
Aim: 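Fly genes whose silencing reduces dengue virus type 2 infection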 (primary screen). Cells: D.Mel-2 cells from Drosophila. Knock-down reagent: long dsRNA against Drosophila genes. Challenge: infection with dengue virus type 2; dose and infection time not stated. Measured: 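Per well on two replicate plates, imaging gave the percent of cells positive for viral envelope protein, ranked by infection, and a nuclear count of cells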. Scale: infection score: higher = more virus-infected cells; cell count: higher = more cells in the well. Call rule: 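Low infection ranks in the two replicates (chance level up to 0.065) followed by a retest with a 1.5-fold or larger significant decrease, p below 0.05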. Calls: active = confirmed: knock-down lowers infection; inactive = not picked or not confirmed.
The deposit covers about 22,000 reagents; shown is a random part of those that have a named target and a result. Over the whole deposit, 116 (0.52%) were called active. 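Calls depend on retest data that are not deposited; infection was ranked per plate without normalising between plates; the unit of the infection score is not given.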 Raw values vary from plate to plate and are shown uncorrected. Not given: the amount of reagent, the time to read-out.

Against CG9886 [DRSC00732] the deposit lists infection score, replicate 1 = 4.31; infection score, replicate 2 = 13.9; cell count, replicate 1 = 5965; cell count, replicate 2 = 5725; inactive.
With knock-down of CG9886 [DRSC26380], the screen gave infection score, replicate 1 = 3.36; infection score, replicate 2 = 3.38; cell count, replicate 1 = 5244; cell count, replicate 2 = 5645; inactive.
Silencing of RpLP1 [DRSC00783] gave: infection score, replicate 1 = 2.64; infection score, replicate 2 = 5.9; cell count, replicate 1 = 6778; cell count, replicate 2 = 6741; inactive.
RpLP1 [DRSC22145] scored infection score, replicate 1 = 2.19; infection score, replicate 2 = 5.27; cell count, replicate 1 = 2875; cell count, replicate 2 = 1366; inactive.
Knock-down of RpLP1 [DRSC23411] gave: infection score, replicate 1 = 4.18; infection score, replicate 2 = 3.1; cell count, replicate 1 = 2131; cell count, replicate 2 = 1644; inactive.
After knock-down of Sema1b [DRSC07550] the results were infection score, replicate 1 = 19; infection score, replicate 2 = 6.76; cell count, replicate 1 = 6200; cell count, replicate 2 = 1080; inactive.
For Sema1b [DRSC27552], the values are infection score, replicate 1 = 23.7; infection score, replicate 2 = 19.8; cell count, replicate 1 = 5935; cell count, replicate 2 = 6393; inactive.
For Irp-1A [DRSC16719] the deposit lists infection score, replicate 1 = 7.74; infection score, replicate 2 = 3.41; cell count, replicate 1 = 6656; cell count, replicate 2 = 6597; inactive.
Against CG7182 [DRSC10780], the values are infection score, replicate 1 = 4.26; infection score, replicate 2 = 4.13; cell count, replicate 1 = 6832; cell count, replicate 2 = 6971; inactive.
Against CG7182 [DRSC24776], the entry reads infection score, replicate 1 = 2.09; infection score, replicate 2 = 1.05; cell count, replicate 1 = 6809; cell count, replicate 2 = 6461; inactive.
With knock-down of Nf-YC [DRSC23106], the screen gave infection score, replicate 1 = 2.06; infection score, replicate 2 = 2.22; cell count, replicate 1 = 6420; cell count, replicate 2 = 7382; inactive.
After knock-down of CG18336 [DRSC06334], the record shows infection score, replicate 2 = 12.1; cell count, replicate 1 = 472; cell count, replicate 2 = 6897; inactive.
For stas [DRSC20104] the deposit lists infection score, replicate 1 = 5.38; infection score, replicate 2 = 1.48; cell count, replicate 1 = 6730; cell count, replicate 2 = 6364; inactive.
Knock-down of eya [DRSC03510] gave: infection score, replicate 1 = 1.23; infection score, replicate 2 = 2.55; cell count, replicate 1 = 6029; cell count, replicate 2 = 6461; inactive.
For CG6293 [DRSC16011], the entry reads infection score, replicate 1 = 16; infection score, replicate 2 = 16.2; cell count, replicate 1 = 5211; cell count, replicate 2 = 4837; inactive.
CG6293 [DRSC28774] showed infection score, replicate 1 = 8.65; infection score, replicate 2 = 2.95; cell count, replicate 1 = 2254; cell count, replicate 2 = 1354; inactive.
CG18547 [DRSC15345] scored infection score, replicate 1 = 1.3; infection score, replicate 2 = 4.9; cell count, replicate 1 = 6473; cell count, replicate 2 = 6893; inactive.
For Dbp80 [DRSC22034], the entry reads infection score, replicate 1 = 9.14; infection score, replicate 2 = 5.52; cell count, replicate 1 = 6246; cell count, replicate 2 = 5792; inactive.
Silencing of RyR [DRSC07543] came out at: infection score, replicate 1 = 26.4; infection score, replicate 2 = 19; cell count, replicate 1 = 6111; cell count, replicate 2 = 5712; inactive.
Knock-down of CG6938 [DRSC10752] resulted in: infection score, replicate 1 = 3.17; infection score, replicate 2 = 2.47; cell count, replicate 1 = 6248; cell count, replicate 2 = 6512; inactive.
Silencing of CG6938 [DRSC28621] resulted in: infection score, replicate 1 = 3.82; infection score, replicate 2 = 7.58; cell count, replicate 1 = 2595; cell count, replicate 2 = 1834; inactive.
ppk23 [DRSC20110] showed infection score, replicate 1 = 2.19; infection score, replicate 2 = 2.38; cell count, replicate 1 = 6613; cell count, replicate 2 = 6483; inactive.
With knock-down of ppk23 [DRSC26441], the record shows infection score, replicate 1 = 0.71; infection score, replicate 2 = 1.04; cell count, replicate 1 = 6478; cell count, replicate 2 = 6834; inactive.
After knock-down of Ser8 [DRSC06891], the screen gave infection score, replicate 1 = 5.64; infection score, replicate 2 = 4.95; cell count, replicate 1 = 975; cell count, replicate 2 = 2160; inactive.
Depletion of Ser8 [DRSC25468] came out at: infection score, replicate 1 = 3.1; infection score, replicate 2 = 2.51; cell count, replicate 1 = 6516; cell count, replicate 2 = 6621; inactive.
Nup188 [DRSC21830] gave infection score, replicate 1 = 30; infection score, replicate 2 = 21.8; cell count, replicate 1 = 2582; cell count, replicate 2 = 3747; inactive.
Nup188 [DRSC29937] scored infection score, replicate 1 = 13.1; infection score, replicate 2 = 1.89; cell count, replicate 1 = 4192; cell count, replicate 2 = 4064; inactive.
